One test addresses SARS-CoV-1 Mpro (Severe acute respiratory syndrome coronavirus (SARS-CoV), UniProt P0C6X7). It is filed as biochemical.
Another test deals with MERS Mpro (Middle East respiratory syndrome-related coronavirus (isolate United Kingdom/H123990006/2012) (MERS-CoV) (Betacoronavirus England 1), UniProt K9N7C7). Kind of test: biochemical.

Amino acid sequences for entries named in this document (tags omitted). Residues count along the entry.
UniProt K9N7C7, 3248-3553 limits assumed: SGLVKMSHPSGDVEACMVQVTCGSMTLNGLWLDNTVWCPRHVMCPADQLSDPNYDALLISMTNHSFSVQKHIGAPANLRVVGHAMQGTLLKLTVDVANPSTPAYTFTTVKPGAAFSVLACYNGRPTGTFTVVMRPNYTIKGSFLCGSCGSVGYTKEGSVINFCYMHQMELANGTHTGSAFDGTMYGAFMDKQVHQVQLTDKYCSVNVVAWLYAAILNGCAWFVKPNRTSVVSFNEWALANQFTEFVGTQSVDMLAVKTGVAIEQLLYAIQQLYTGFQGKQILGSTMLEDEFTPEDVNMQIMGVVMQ

Molecules are shown by their SMILES. pEC50: −log10 of the molar value.

As to `N#Cc1cc(C(=O)N2CCOCC2)c(N2CC[C@H](NC(=O)c3cc(=O)[nH]c4c(F)cccc34)C2)c(C(F)(F)F)c1` [Compound 4], the pEC50 – broadly, −log10 of the EC50, conventionally taken in molar units – is 8.00 on SARS-CoV-1 Mpro and 7.91 on MERS Mpro.

Compound `O=C(N[C@H]1CCN(c2c(C(=O)N3CCOCC3)cc(Br)cc2C(F)(F)F)C1)c1cc(=O)[nH]c2c(F)cccc12` [Compound 47] showed a pEC50 at MERS Mpro of 8.02.

Values taken from patent US20240158368A1, “Pyrrolidine Main Protease Inhibitors as Antiviral Agents” (AbbVie Inc., priority 2022, published 2024).
